# Laboratory results taken from patent publication US11365207B2, “Sulfur-containing polycyclic-hydroxypyridone carboxamide analog against HIV” (priority 2018, dated 2022).
# Structures can show the parent of a compound that is named as a salt.
# Tests used:
# HIV-1IIIB [1] = assay: Inhibition experiment for cytopathic effect (CPE) of HIV-1IIIB, syncytia formation in C8166 cells; type: cell-based; conditions: TI=CC50/EC50, EC50 from cpe experiment
# Procedure: (§1) Human T lymphocytic series C8166 and HIV-1 experiment strain HIV-1IIIB are both from National Institutes of Health (NIH); cells are cultured in the RPMI-1640 complete culture medium containing 10% fetal bovine serum. HIV-1IIIB is prepared by using a conventional method, titration and calculation of TCID 50 of viruses are performed. Virus stock solution is subpackaged and stored at −70° C. Cells and viruses are cryopreserved and recovered according to conventional methods.
# 7. Inhibition Experiment for Cytopathic Effect (CPE) of HIV-1IIIB
# 8×10^5/ml C8166 cells were inoculated onto the 96-well cell culture plate containing 100 μl/well drug subjected to gradient multiple proportion dilution in an amount of 50 μl/well, and then 50 μl HIV-1IIIB was added to dilute the supernatant, 1300 TCID 50/well. 3 repetition wells were set. Meanwhile, normal cell control wells without drugs were set. TDF and dolutegravir were positive drug controls. Culture was performed for 3 days under the conditions of 37° C. and 5% CO2, and syncytia formation were counted under the inverted microscope (100×). EC50 (50% Effective Concentration) is the concentration of the drug when 50% of syncytia formation is inhibited.
# (§2) According to experiment results, fitted curves are drawn using Origin2016, the 50% effective concentrations (EC50) of the samples inhibiting viruses, 50% cell growth inhibition concentrations (CC50) and TI (therapeutic index) value against HIV-1 activity are calculated based on Reed & Muench method, and the TI value is TI=CC50/EC50.
# 2. HIV-1 cytopathic cell inhibition rate (%)=(1−experiment well syncytia number/control well syncytia number)×100
# HIV-1IIIB [2] = assay: Inhibition of replication in HIV-1IIIB acute infectious C8166 cells (p24 antigen capture ELISA); type: cell-based; conditions: TI=CC50/EC50, EC50 from P24 experiment
# Procedure: as §1
# 5. Measurement of HIV-1 p24 Antigen with p24 Antigen Capture ELISA Method
# The 1 μg/plate of anti-mouse IgG Fc antibody was paved at 4° C. for overnight; the plate was sealed with 5% skimmed milk powder 4° C. for overnight; 100 μl/well mouse anti-p24 monoclonal antibody was added at 37° C. for 1 h; 100 μl/well (1:100) diluted rabbit anti-p24 polyclonal antibody (homemade) was added for 1 h at 37° C.; 100 μl/well (1:20000) diluted goat anti-rabbit IgG HRP was added for 1 h at 37° C.; OPD substrate reaction solution was added. After 10 min, 2M sulfuric acid was added to stop the reaction. The OD value was determined by Elx800 ELISA, and the wavelength was measured as 490/630 nm. The inhibition rate and EC50 of the drug on the p24 antigen replication and expression of HIV-1, namely, the concentration of the drug inhibiting 50% HIV-1 p24 antigen were calculated, namely, the concentration of the drug inhibiting 50% HIV-1 p24 antigen expression was calculated.
# 8. Inhibition Effect of Samples on Replication in Experiment Strain HIV-1IIIB Acute Infectious C8166 Cells
# 4×10^5 cells/ml C8166 cells and HIV-1IIIB MOI (multiplicity of infection=0.04) are infected for 2 h at 37° C., the obtained mixture is washed three times with PBS to remove free virus ions, 100 μl of cells are inoculated onto the 96-well plate containing 100 μl of to-be-detected compounds having different dilutions and cultured for 3 days under the conditions of 37° C. and 5% CO2. The cultural supernatant is centrifuged and then collected, and finally lysed and inactivated with 0.5% Triton X-100. The inhibition effect of the drug on HIV-1 replication is detected by using the p24 antigen capture ELISA method.
# as §2
# 3. HIV-1 p24 antigen expression inhibition rate (%)=(1−experiment well OD value/control well OD value)×100
Compound,Therapeutic index TI (HIV-1IIIB [1]),Therapeutic index TI (HIV-1IIIB [2])
C[C@@H]1CSC2Cn3cc(C(=O)NCc4ccc(F)cc4F)c(=O)c(O)c3C(=O)N21 (stereo partly drawn) [Compound 1],108973.00,101255.11
C[C@H]1CSC2Cn3cc(C(=O)NCc4ccc(F)cc4F)c(=O)c(O)c3C(=O)N21 (stereo partly drawn) [Compound 2],723499.36,6273353.27
CC[C@@H]1CSC2Cn3cc(C(=O)NCc4ccc(F)cc4F)c(=O)c(O)c3C(=O)N21 (stereo partly drawn) [Compound 3],645083.10,531374.79
CC[C@H]1CSC2Cn3cc(C(=O)NCc4ccc(F)cc4F)c(=O)c(O)c3C(=O)N21 (stereo partly drawn) [Compound 4],645083.10,531374.79
CC(C)C1CSC2Cn3cc(C(=O)NCc4ccc(F)cc4F)c(=O)c(O)c3C(=O)N21 (stereo not drawn) [Compound 5],99567.90,85770.50
CC(C)[C@H]1CSC2Cn3cc(C(=O)NCc4ccc(F)cc4F)c(=O)c(O)c3C(=O)N21 (stereo partly drawn) [Compound 6],124340.07,108766.70
CC(C)(C)[C@H]1CSC2Cn3cc(C(=O)NCc4ccc(F)cc4F)c(=O)c(O)c3C(=O)N21 (stereo partly drawn) [Compound 8],36786.07,33714.91
O=C(NCc1ccc(F)cc1F)c1cn2c(c(O)c1=O)C(=O)N1C(C2)SC[C@@H]1c1ccccc1 (stereo partly drawn) [Compound 10],11822.00,10855.77
O=C(NCc1ccc(F)cc1F)c1cn2c(c(O)c1=O)C(=O)N1C(C2)SC[C@@H]1Cc1ccccc1 (stereo partly drawn) [Compound 12],54405.86,48558.34
C[C@@H]1CCSC2Cn3cc(C(=O)NCc4ccc(F)cc4F)c(=O)c(O)c3C(=O)N21 (stereo partly drawn) [Compound 18],1380633.73,1265674.33
CC(C)C[C@H]1CSC2Cn3cc(C(=O)NCc4ccc(F)cc4F)c(=O)c(O)c3C(=O)N21 (stereo partly drawn) [Compound 20],146569.64,123467.60
O=C(NCc1c(F)cc(F)cc1F)c1cn2c(c(O)c1=O)C(=O)N1C(C2)S[C@@H]2CC[C@H]1C2 (stereo partly drawn) [Compound 34],576365.66,542355.51
C[C@H]1CSC2Cn3cc(C(=O)NCc4ccc(F)cc4)c(=O)c(O)c3C(=O)N21 (stereo partly drawn) [Compound 66],266489.71,240306.37
"C[C@@H]1CCO[C@H]2Cn3cc(C(=O)NCc4ccc(F)cc4F)c(=O)c(O)c3C(=O)N12 [Dolutegravir, reference compound]",12464.48,25285.71
"CC(C)OC(=O)OCOP(=O)(CO[C@H](C)Cn1cnc2c(N)ncnc21)OCOC(=O)OC(C)C [TDF, tenofovir disoproxil fumarate, reference compound]",13029.85,19472.12
